In US20240409618A1 (WISTAR INSTITUTE OF ANATOMY AND BIOLOGY, published 2024):
Read-outs that look alike come from different tables or passages of the source.

B1: DMAb 2381_FcWT (antibody)
heavy: not shown
light: EVVLTQSPGTLSLSPGERATLSCRASQSVSSSYLAWYQQKPGQAPRLLIYGASSRATGIPDRFSGSGSGTDFTLTISRLEPEDFAVYHCQHFGSSSQWTFGQGTKVEIKRTVAAPSVFIFPPSDEQLKSGTASVVCLLNNFYPREAKVQWKVDNALQSGNSQESVTEQDSKDSTYSLSNTLTLSKADYEKHKVYACEVTHQGLSSPVTKSFNRGEC
notes: also called 2381 (WT); 2381(m1)
B2: DMAb 2381_FcTM (antibody)
heavy: QMQLVQSGPEVKKPGTSVKVSCKASGFTFTSSAVQWVRQARGQRLEWIGWIAVGSGNTNYAQKFQERVSITRDMSTSTAYMELSSLRSEDTAVYYCAAPYCSRTSCHDAFDIWGQGTKVTVSSASTKGPSVFPLAPSSKSTSGGTAALGCLVKDYFPEPVTVSWNSGALTSGVHTFPAVLQSSGLYSLSSVVTVPSSSLGTQTYICNVNHKPSNTKVDKKVEPKSCDKTHTCPPCPAPEFEGGPSVFLFPPKPKDTLMISRTPEVTCVVVDVSHEDPEVKFNWYVDGVEVHNAKTKPREEQYNSTYRVVSVLTVLHQDWLNGKEYKCKVSNKALPASIEKTISKAKGQPREPQVYTLPPSRDELTKNQVSLTCLVKGFYPSDIAVEWESNGQPENNYKTTPPVLDSDGSFFLYSKLTVDKSRWQQGNVFSCSVMHEALHNHYTQKSLSLSPGK
light: B1 light

Assays:
[1] = target: T1, RBD-F486A recombinant protein (AstraZeneca) (SARS-CoV-2, UniProt P0DTC2 319-541); assay: ELISA, pooled sera on coated mutant RBD
T1 construct: domain: RBD

[2] = target: T1, RBD-F486A recombinant protein …

Binder	binding result [1]	binding result [2]
B1	no binding	
B2		no binding
